{"source": "paper PMC10199899", "key": {"[1]": {"test_system": "GST-AjYTHDF (Apostichopus japonicus)", "assay": "EMSA", "conditions": "500 ng protein; none; m6A site A33 to U; printed 3' part has a T (GGCTAC), written U here; split over S36 and S37; EMSA: LightShift Chemiluminescent RNA EMSA Kit binding buffer (composition and pH not stated), room temperature 20 min, 6% native gel in 0.5x TBE; recombinant protein; protein details: GST; label: 3' biotin"}, "[2]": {"test_system": "AjYTHDF (coelomocyte lysate) (Apostichopus japonicus)", "assay": "RNA pull-down, immunoblot", "conditions": "none, m6A site A33 to U, printed 3' part has a T (GGCTAC), written U here, split over S36 and S37, pull-down: Pierce Magnetic RNA-Protein Pull-Down Kit, 50 pmol RNA, lysate 1 h, protein in an extract, label: 3' biotin"}}, "note": "For at least one entry, the source does not settle the construct or the ends of the probe. Negatives hold for the conditions tested. For some assays here: Results from cells or extracts need not show a direct contact.", "data": [{"sequence": "AGGUAUCAUUCAGCCCAAAUGCUGCUACACGGUCUCUGCUUACAGGCUAC [AjULK Mut probe]", "values": [{"measurement": "binding result", "setting": "[1]", "value": "no binding"}, {"measurement": "binding result", "setting": "[2]", "value": "no binding"}]}]}
